Measurements reported in PubChem BioAssay AID504761 (Drosophila RNAi Screening Center, 2011).
Test: 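Genome-wide fly cell screen for genes dengue virus requires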 (primary screen). System: D.Mel-2 cells from Drosophila. Knock-down reagent: long dsRNA against Drosophila genes. Challenge: infection with dengue virus type 2; dose and infection time not stated. Detection: 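Cells stained for dengue envelope protein and imaged; percent of infected cells per well on duplicate plates, ranked by infection, with stained nuclei counted for cell number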. Scale: infection score: higher = more virus-infected cells. Rule for the call: 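Very low infection ranking in both replicate wells (chance probability at most 0.065), then a retest showing infection dropped 1.5-fold or more at p below 0.05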. Meaning of the calls: active = confirmed: knock-down lowers infection; inactive = not picked or not confirmed.
The deposit covers about 22,000 reagents; shown is a random part of those that have a named target and a result. In the full data, 116 (0.52%) got an active call. 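Calls depend on retest data that are not deposited; infection was ranked per plate without normalising between plates; the unit of the infection score is not given.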 Further read-outs or replicates are left out here. Not stated in the record: the amount of reagent, the time to read-out.

Map60 [DRSC07464] — infection score, replicate 1: 6.25; call: inactive
Cpsf6 [DRSC10781] — infection score, replicate 1: 3.96; call: inactive
CG32320 [DRSC21514] — infection score, replicate 1: 0.86; call: inactive
CG32320 [DRSC28106] — infection score, replicate 1: 40.9; call: inactive

Continued; the last 2 above are carried over.
CG32320 [DRSC21514] — infection score, replicate 1: 0.86; call: inactive
CG32320 [DRSC28106] — infection score, replicate 1: 40.9; call: inactive
CG34041 [DRSC22276] — infection score, replicate 1: 4.88; call: inactive
CG34041 [DRSC30023] — infection score, replicate 1: 2.19; call: inactive
CG6005 [DRSC15945] — infection score, replicate 1: 1.98; call: inactive
mfr [DRSC10543] — infection score, replicate 1: 0.78; call: inactive
ash1 [DRSC11325] — infection score, replicate 1: 1.84; call: inactive
Osi22 [DRSC16442] — infection score, replicate 1: 4.08; call: inactive
Osi22 [DRSC27176] — infection score, replicate 1: 6.93; call: inactive
Pi4KIIIalpha [DRSC18655] — infection score, replicate 1: 7.43; call: inactive
CG13538 [DRSC04180] — infection score, replicate 1: 11.5; call: inactive
AANATL3 [DRSC02089] — infection score, replicate 1: 5.85; call: inactive
